We go through 76 compounds from US7030150B2, “Benzimidazole compounds and antiviral uses thereof” (Trimeris, Inc., priority 2001, dated 2006).

This data set relates to RSV. The experiment in a line: RSV plaque reduction (PRA) / syncytia formation antiviral assay in Hep2 cells. Type of data set: cell-based, Respiratory Syncytial Virus. The settings on record: for SI: ratio CC50/IC50, Table 8; for Selective Index: ratio CC50/IC50, Tables 1-7.

In the case of `CN(C)Cc1ccc2c(c1)nc(CN1CCOCC1)n2Cc1nc2ccccc2[nH]1` [compound 241], the SI amounted to 26. Consider `CC1CCCCN1CCCNCc1nc2ccccc2n1Cc1nc2ccccc2[nH]1` (stereo not shown) [compound 160], for which the “Selective Index” value is on record as 46.

For the compound `CC(c1ccccc1)N(C)Cc1nc2ccccc2n1Cc1nc2ccccc2[nH]1` (stereo not shown) [compound 86], the “Selective Index” value worked out at 151.2.

For the compound `COC(=O)c1ccc2nc(CN3CCOCC3)n(Cc3nc4ccccc4[nH]3)c2c1.Cl` [compound 270], the SI is given as 10000.

For `C=C(C)CN(CC)Cc1nc2ccccc2n1Cc1nc2ccccc2[nH]1` [compound 89], the “Selective Index” value is 1470.6. As for `Cc1nc(Cn2c(CN(Cc3ccccc3)C(C)C)nc3ccccc32)cs1` [compound 40], the “Selective Index” value is given as 13.44. Take `CN(Cc1nc2ccccc2n1Cc1nc2ccccc2[nH]1)CC(O)c1ccc(O)cc1` (stereo not shown) [compound 97]: the “Selective Index” value came to 592.3.

As for `COc1ccc(N(C)Cc2nc3ccccc3n2Cc2nc3ccccc3[nH]2)cc1` [compound 110], the “Selective Index” value worked out at 62.5.

On to `CC(C)N(Cc1nc2ccccc2n1Cc1ccccn1)C1CCCCC1` [compound 7], for which the “Selective Index” value was determined as 125.

Consider `c1ccc2c(c1)CCCC2NCc1nc2ccccc2n1Cc1nc2ccccc2[nH]1` (stereo not shown) [compound 156], for which the “Selective Index” value is recorded as 118. Turning to `C[C@@H](c1cccc2ccccc12)N(C)Cc1nc2ccccc2n1Cc1nc2ccccc2[nH]1` [compound 109], the “Selective Index” value is 43.5. As to `Clc1ccccc1CNCc1nc2ccccc2n1Cc1nc2ccccc2[nH]1` [compound 150], the “Selective Index” value came out at 77.

Regarding `O=C(O)c1ccc2[nH]c(CCl)nc2c1` [compound 4], the “Selective Index” value amounted to 8. `CCN(Cc1nc2ccccc2n1Cc1nc2ccccc2[nH]1)C(C)C` [compound 81]: the “Selective Index” value was 450. As for `c1ccc(Cn2c(CN3CCCCC3)nc3ccccc32)cc1` [compound 78], the “Selective Index” value turned out to be 24. The same measure, in the same setting: then `c1ccc2[nH]c(Cn3c(CN4CCSC4)nc4ccccc43)nc2c1` [compound 222], with 666.7; and `FC(F)(F)c1cnc(N2CCCN(Cc3nc4ccccc4n3Cc3nc4ccccc4[nH]3)CC2)c(Cl)c1` [compound 215], with 66.7. Consider `CC(C)N(Cc1nc2ccccc2n1Cc1ccc(S(C)(=O)=O)cc1)C1CCCCC1` [compound 13], for which the “Selective Index” value stood at 111. The same measure, in the same setting: next, `CC(C)N(C)Cc1nc2ccccc2n1Cc1nc2ccccc2[nH]1` [compound 82]: 1388.9; `c1csc(CNCc2nc3ccccc3n2Cc2nc3ccccc3[nH]2)c1` [compound 142]: 63; `CCNCc1nc2ccccc2n1Cc1nc2ccccc2[nH]1` [compound 123]: 3846. Regarding `OCCNCc1nc2ccccc2n1Cc1nc2ccccc2[nH]1` [compound 117], the “Selective Index” value stood at 769. Consider `NNC(=O)c1ccc2c(c1)nc(CN1CCOCC1)n2Cc1nc2ccccc2[nH]1` [compound 248], for which the SI was found to be 13.

On to `c1ccc2[nH]c(Cn3c(CNCCCn4ccnc4)nc4ccccc43)nc2c1` [compound 136], for which the “Selective Index” value came out at 132.

Turning to `c1ccc2[nH]c(Cn3c(CN4CCCCCCC4)nc4ccccc43)nc2c1` [compound 233], the “Selective Index” value worked out at 6250.

Take `Cc1nc(Cn2c(CN3CCCCC3)nc3ccccc32)cs1` [compound 51]: the “Selective Index” value is given as 24.39.

On to `COc1cccc(CNCc2nc3ccccc3n2Cc2nc3ccccc3[nH]2)c1OC` [compound 181], for which the “Selective Index” value is on record as 143. For the compound `CSc1ccc(Cn2c(CN3CCCCC3)nc3ccccc32)cc1` [compound 76], the “Selective Index” value was 6. Still for that read-out and setting: next, `CCCCCCN(C)Cc1nc2ccccc2n1Cc1nc2ccccc2[nH]1` [compound 88]: 666.7.

`OCc1ccc2c(c1)nc(CN1CCOCC1)n2Cc1nc2ccccc2[nH]1` [compound 243]: the SI is given as 170. Take `COCCCNCc1nc2ccccc2n1Cc1nc2ccccc2[nH]1` [compound 116]: the “Selective Index” value amounted to 741. In the case of `Clc1ccc(CCNCc2nc3ccccc3n2Cc2nc3ccccc3[nH]2)c(Cl)c1` [compound 179], the “Selective Index” value was 45. The same measure, in the same setting: next, `c1ccc2c(c1)CC(NCc1nc3ccccc3n1Cc1nc3ccccc3[nH]1)C2` [compound 178]: 70; `O=C(OCc1ccccc1)N1CCN(Cc2nc3ccccc3n2Cc2nc3ccccc3[nH]2)CC1` [compound 221]: 4347.8; `CN(CCc1ccccn1)Cc1nc2ccccc2n1Cc1nc2ccccc2[nH]1` [compound 98]: 333.3. `FC(F)(F)Oc1ccccc1Cn1c(CN2CCCCC2)nc2ccccc21` [compound 75]: the “Selective Index” value turned out to be 26. In the case of `C1=CCN(Cc2nc3ccccc3n2Cc2nc3ccccc3[nH]2)CC1` [compound 202], the “Selective Index” value was 125.

Consider `CC(C)OCCCNCc1nc2ccccc2n1Cc1nc2ccccc2[nH]1` [compound 129], for which the “Selective Index” value was 556.

As for `CCCN(Cc1nc2ccccc2n1Cc1ccc2ccccc2n1)CC1CC1` [compound 20], the “Selective Index” value is 15.38. Still for that read-out and setting: then `CC(C)(C)OC(=O)n1c(CCl)nc2ccccc21` [compound 8], with 91; and `Cc1ccccc1C(=O)n1c(CN2CCCCC2)nc2ccccc21` [compound 53], with 12.99. `c1ccc(CC(NCc2nc3ccccc3n2Cc2nc3ccccc3[nH]2)c2ccccc2)cc1` (stereo not shown) [compound 168]: the “Selective Index” value is reported as 20.

`c1ccc(CN2CCC(NCc3nc4ccccc4n3Cc3nc4ccccc4[nH]3)C2)cc1` (stereo not shown) [compound 149]: the “Selective Index” value is 42. Still for that read-out and setting: next, `OCCC1CCCCN1Cc1nc2ccccc2n1Cc1nc2ccccc2[nH]1` (stereo not shown) [compound 213]: 5882.4; `C#CCN(C)Cc1nc2ccccc2n1Cc1nc2ccccc2[nH]1` [compound 90]: 322.6; `CC(=O)c1ccc(N2CCN(Cc3nc4ccccc4n3Cc3nc4ccccc4[nH]3)CC2)cc1` [compound 229]: 277.8. The same measure, in the same setting: then `Oc1ccc(N2CCN(Cc3nc4ccccc4n3Cc3nc4ccccc4[nH]3)CC2)cc1` [compound 220], with 666.7; and `CCCCCN(C)Cc1nc2ccccc2n1Cc1nc2ccccc2[nH]1` [compound 91], with 470.6; and `COC(=O)c1ccc2[nH]c(CCl)nc2c1` [compound 5], with 11.88.

`c1ccc2[nH]c(Cn3c(CNC4CCCCC4)nc4ccccc43)nc2c1` [compound 165]: the “Selective Index” value is listed as 57. On the same count and under the same terms, then `CC(C)CCN(CCC(C)C)Cc1nc2ccccc2n1Cc1nc2ccccc2[nH]1` [compound 87], with 666.7; and `CCCN(Cc1nc2ccccc2n1Cc1cc(F)cc2c1OCOC2)CC1CC1` [compound 24], with 96. Still for that read-out and setting: then `CCN(Cc1ccncc1)Cc1nc2ccccc2n1Cc1nc2ccccc2[nH]1` [compound 99], with 14.5; and `CN1CCN(CCCNCc2nc3ccccc3n2Cc2nc3ccccc3[nH]2)CC1` [compound 112], with 143; and `C#CCCN(C)Cc1nc2ccccc2n1Cc1nc2ccccc2[nH]1` [compound 94], with 12.3. Same read-out and setting: then `Fc1cccc(F)c1CNCc1nc2ccccc2n1Cc1nc2ccccc2[nH]1` [compound 161], with 172; and `N=C(N)NCc1nc2ccccc2n1Cc1nc2ccccc2[nH]1` [compound 104], with 12.5; and `FC(F)(F)Oc1ccc(CNCc2nc3ccccc3n2Cc2nc3ccccc3[nH]2)cc1` [compound 115], with 500.

As to `CCCCN(CCCC)CCCNCc1nc2ccccc2n1Cc1nc2ccccc2[nH]1` [compound 100], the “Selective Index” value turned out to be 1.2. For the compound `NC(=O)CNC(=O)c1ccc2c(c1)nc(CN1CCOCC1)n2Cc1nc2ccccc2[nH]1` [compound 267], the SI was determined as 13.

Regarding `CSc1ccc(Cn2c(CN3CCCCC3)nc3ccccc32)cc1` [compound 61], the “Selective Index” value turned out to be 15. On the same count and under the same terms, next, `c1ccc2[nH]c(Cn3c(CNC4CCCC4)nc4ccccc43)nc2c1` [compound 177]: 3333; `CN(C)CCN(C)Cc1nc2ccccc2n1Cc1nc2ccccc2[nH]1` [compound 84]: 55.6. On the same count and under the same terms, next, `c1ccc2c(c1)CCC2NCc1nc2ccccc2n1Cc1nc2ccccc2[nH]1` (stereo not shown) [compound 144]: 56. On the same count and under the same terms, then `O=C(c1ccco1)N1CCN(Cc2nc3ccccc3n2Cc2nc3ccccc3[nH]2)CC1` [compound 198], with 3300; and `CN(C)CCN(Cc1ccccc1)Cc1nc2ccccc2n1Cc1nc2ccccc2[nH]1` [compound 93], with 185.2. `COc1cc(CNCc2nc3ccccc3n2Cc2nc3ccccc3[nH]2)cc(OC)c1` [compound 122]: the “Selective Index” value was found to be 111. Regarding `c1ccc(CCNCc2nc3ccccc3n2Cc2nc3ccccc3[nH]2)cc1` [compound 155], the “Selective Index” value came to 217. The same measure, in the same setting: then `O=C1c2ccccc2C(=O)N1Cc1nc2ccccc2n1Cc1nc2ccccc2[nH]1` [compound 226], with 6.3. Regarding `O=C(O)c1ccc2nc(CN3CCOCC3)n(Cc3nc4ccccc4[nH]3)c2c1` [compound 269], the SI turned out to be 30. Consider `CC1C=CC(C)N1Cc1nc2ccccc2n1Cc1nc2ccccc2[nH]1` (stereo not shown) [compound 207], for which the “Selective Index” value is listed as 526.3. Same read-out and setting: then `Cc1ccc(N2CCN(Cc3nc4ccccc4n3Cc3nc4ccccc4[nH]3)CC2)c(C)c1` [compound 227], with 12.8; and `Fc1cc(F)cc(CNCc2nc3ccccc3n2Cc2nc3ccccc3[nH]2)c1` [compound 173], with 8. Same read-out and setting: next, `O=C1C(=O)N(Cc2nc3ccccc3n2Cc2nc3ccccc3[nH]2)c2ccc([N+](=O)[O-])cc21` [compound 236]: 12.5. On the same count and under the same terms, then `ClCc1nc2ccccc2n1Cc1nc2ccccc2[nH]1` [compound 1], with 9.69; and `c1ccc2[nH]c(Cn3c(CN4CCC5CCCCC5C4)nc4ccccc43)nc2c1` (stereo not shown) [compound 214], with 12.5.
